Experimental data from paper PMC10012172, “Chimeric Peptidomimetic Antibiotic Efficiently Neutralizes Lipopolysaccharides (LPS) and Bacteria-Induced Activation of RAW Macrophages” (ACS Infectious Diseases, 2023).
Where a SMILES comes first, the peptide text is derived from it. Bridges are numbered along the chain shown (N, C = ends). Roman numbers before positions name the chains, in order. [ ]: non-standard residue; d: D form. Tle = CC(C)(C)[C@H](N)C(=O)O; dDab = NCC[C@@H](N)C(=O)O; hSer = N[C@@H](CCO)C(=O)O; Orn = NCCC[C@H](N)C(=O)O; Dab = NCC[C@H](N)C(=O)O

Test system: E. coli O111:B4 LPS
Assay: Isothermal titration calorimetry (ITC) of LPS binding
Conditions: 30 μM peptide, 200 μM LPS in 50% PBS, 37 °C, representative of two measurements
Experimental: Figure 6 (A) Binding profile of LPS and the peptides using ITC. Binding signatures (ΔG, ΔH. and −TΔS) plotted for binding events of LPS with peptides. (B) Spectra of the interaction between LPS and peptides. Murepavadin, PMB, MHM, PMBN, and CPA (30 μM) were titrated against 200 μM E. coli O111:B4 LPS, and heat rates were recorded. Shown is a representative of two measurements.
ITC measurements were performed in a low volume NanoITC (TA Instruments-Waters LLC, New Castle, DE). Two hundred micromolar LPS (from E. coli O111:B4) was prepared in 50% PBS. Peptides of 30 μM concentration were prepared in identical buffer. Three hundred microliters of the peptide solution was added to the chamber (chamber volume is 169 μL, so the rest of the volume flows out and rests around the chamber), and 50 μL of LPS was added to the syringe. At 37 °C, 2 μL of LPS solution was injected into the chamber every 300 s, except the first injection, which consists of 0.96 μL. The experiments were performed at 37 °C while stirring at 300 rpm. The data was analyzed with the NanoAnalyze Software (TA Instruments, Asse, Belgium).

Compound	n (binding stoichiometry) of peptide–LPS binding
polymyxin B [PMB]	0.6
CC(C)[C@@H]1NC(=O)[C@@H]2CCCN2C(=O)[C@@H](C)NC(=O)[C@H](CO)NC(=O)[C@H](C)NC(=O)[C@H](C(C)(C)C)NC(=O)[C@H](CCO)NC(=O)[C@H](Cc2c[nH]c3ccccc23)NC(=O)[C@H](CCO)NC(=O)[C@@H](CCN)NC(=O)[C@H](CCC(=O)O)NC(=O)[C@H](CCN)NC(=O)[C@H](Cc2ccc(O)cc2)NC(=O)[C@H]([C@@H](C)O)NC1=O [MHM] (cyclo(VTY[Dab]E[dDab][hSer]W[hSer][Tle]AS[dA]P))	0.3
CC(C)C[C@@H]1NC(=O)[C@@H](Cc2ccccc2)NC(=O)[C@H](CCN)NC(=O)[C@@H](NC(=O)[C@H](CCN)NC(=O)[C@@H](N)[C@@H](C)O)CCNC(=O)[C@H]([C@@H](C)O)NC(=O)[C@H](CCN)NC(=O)[C@H](CCN)NC1=O [PMBN, polymyxin B nonapeptide] (H-T[Dab][Dab][Dab][dF]L[Dab][Dab]T; lactam 3-C (inferred); N-terminus assumed)	0.4
CC(C)C[C@@H]1NC(=O)[C@@H](Cc2ccccc2)NC(=O)[C@H](CCN)NC(=O)[C@@H](NC(=O)[C@H](CCN)NC(=O)[C@@H](NC(=O)[C@H](CCN)NC(=O)CC[C@@H]2NC(=O)[C@H](CCN)NC(=O)[C@H](Cc3ccc(O)cc3)NC(=O)[C@H]([C@@H](C)O)NC(=O)[C@H](C(C)C)NC(=O)[C@@H]3CCCN3C(=O)[C@@H](C)NC(=O)[C@H](CO)NC(=O)[C@H](C)NC(=O)[C@H](C(C)(C)C)NC(=O)[C@H](CCO)NC(=O)[C@H](Cc3c[nH]c4ccccc34)NC(=O)[C@H](CCO)NC(=O)[C@@H](CCN)NC2=O)[C@@H](C)O)CCNC(=O)[C@H]([C@@H](C)O)NC(=O)[C@H](CCN)NC(=O)[C@H](CCN)NC1=O [CPA] (I: cyclo([dDab][hSer]W[hSer][Tle]AS[dA]PVTY[Dab]E) / II: [Dab]T[Dab][Dab][Dab][dF]L[Dab][Dab]T; amide I:14-II:N (inferred); lactam II:4-II:C (inferred); ring closure inferred)	0.5
CC[C@H](C)[C@@H]1NC(=O)[C@H](Cc2c[nH]c3ccccc23)NC(=O)[C@H]([C@@H](C)O)NC(=O)[C@@H]2CCCN2C(=O)[C@H]2CCCN2C(=O)[C@H](CO)NC(=O)[C@H](C)NC(=O)[C@H](CCN)NC(=O)[C@H](CCN)NC(=O)[C@H](Cc2c[nH]c3ccccc23)NC(=O)[C@H](CCN)NC(=O)[C@@H](CCN)NC(=O)[C@H](CCCN)NC(=O)[C@H](CCN)NC1=O [murepavadin] (cyclo(TWI[Dab][Orn][dDab][Dab]W[Dab][Dab]AS[dP]P))	0.4
